The data set deals with S. aureus. In words: Tolerance of S. aureus towards ELF phosphate in S. aureus plating media. In kind it is cell-based. The source says: Varying concentrations of ELF® phosphate in S. aureus plating media were used to determine the effect on growth and sensitivity of S. aureus to ELF® phosphate. Colony growth in the presence of ELF® phosphate was compared to colony growth in media without ELF® phosphate.

As to `O=P(O)(O)O.O=c1[nH]c(-c2cc(Cl)ccc2O)nc2ccc(Cl)cc12` [ELF ® Phosphate, 6-chloro-2-(5-chloro-2-hydroxyphenyl)-quinazolin-4(3H)-one phosphate], the “Sensitivity (time until appearance of distinct colonies at 360 nm)” value reads like this: (ELF phosphate 0.080 g/L) 24 to 48 h; (ELF phosphate 0.200 g/L) 12 to 16 h; (ELF phosphate 0.400 g/L) 10 to 12 h; (ELF phosphate 0.600 g/L) 10 to 12 h. Further, the “concentration up to which sensitivity increased, then leveled off” value (S. aureus plating media) is recorded as “about 400 mg/L”.

The values are drawn from US20100291591A1, “NOVEL PLATING MEDIA” (priority 2007, published 2010).
